## Results of single-concentration screens

Measurements from “University of Dundee, Small-Polar-MMV Screening Library” (2021), ChEMBL document CHEMBL3988442.

Results are given as percent effect. How 0% and 100% were set is not recorded. Most values in the screen are low, and negative values occur. This is part of a subset picked to be rich in strong results.

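Whole-cell growth test on Mycobacterium tuberculosis, read after 4 days in a medium based on cholesterol and the lipid DPPC; the read-out is not stated. Compounds at 500 µM. Direction is inferred from retests: higher values go with more growth inhibition. About 18,000 compounds were tested under these conditions; 5% (about 900) showed 50% or more at least once.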

structure: OCCC1CCN(Cc2ccccc2)C1 (stereo not shown)
effect: 50.7

structure: N#Cc1ccccc1C(=O)N1CCOCC(O)C1 (stereo not shown)
effect: -5.654

structure: CN(CC(N)=O)CC1CCCCC1
effect: 5.795

structure: CC(C)NC(=O)NC(C)c1ccccc1 (stereo not shown)
effect: 68.58

structure: CC(C)Sc1ncccc1C(=O)NCC1CCOC1 (stereo not shown)
effect: -0.9223

structure: OCC(O)CSCCc1ccccc1Cl (stereo not shown)
effect: 54.41

structure: CCNC(=O)c1cc(N2CCC(COC)CC2)ccn1
effect: 39.22

structure: CCc1nc2n(n1)CCCC2N (stereo not shown)
effect: -33.09

structure: C=C(C)CSCC(=O)NC(C)C(=O)N1CCCCC1 (stereo not shown)
effect: 19.56

structure: OCCOCCn1cccn1
effect: -1.229

structure: CCn1nc(CC(C)C)cc1C(=O)N1CC(O)C1
effect: 22.63

structure: CN1CC2(CCCN(CCn3cc(Cl)cn3)C2)OC1=O (stereo not shown)
effect: 2.696

structure: COc1ccc(Cc2[nH][nH]c(=O)c2CCN)cc1
effect: 48.3

structure: CC(=O)c1ccc(S(C)(=O)=O)c(N(C)CCC2CC2)c1
effect: -24.16

structure: O=C(Cn1ccccc1=O)Nc1nc2c(s1)CCC2
effect: -20.45

structure: O=C(Nc1cc(Cl)ccn1)C1CC1
effect: 30.7

structure: NCc1ccc(-c2nc3cnccc3o2)cc1
effect: 14.41

structure: Cc1nc(CNC(CCO)C(C)C)no1 (stereo not shown)
effect: -0.8026

structure: Cc1ccc(C(=O)N2CCN(c3nccs3)CC2)o1
effect: 81.78

structure: Cc1c[nH]c(C(C)NC(=O)c2ccc(CO)cc2)n1 (stereo not shown)
effect: 4.567

structure: Cc1ccc(C2CCCCN2)o1 (stereo not shown)
effect: -0.9154

structure: Cc1nc(CNC(=O)c2ccccc2)no1
effect: -2.554

structure: COc1ccc(C(C)CO)cc1 (stereo not shown)
effect: 55.12

structure: CN(C)S(=O)(=O)N1CCC(Oc2ccccc2Cl)CC1
effect: 72.89

structure: CCC(O)CNCc1ccccc1 (stereo not shown)
effect: 8.328

structure: COC(=O)Cc1cc(OC)ccc1S(N)(=O)=O
effect: 3.559

structure: CC(=Cc1ccccc1)CN1CCN(S(N)(=O)=O)CC1
effect: 38.34

structure: O=C(Nc1cncc(Br)c1O)c1csnn1
effect: 4.061

structure: O=C1CCC(=O)N1CCOc1cccc(F)c1
effect: 11.28

structure: O=C(Cc1ccc(O)c(Cl)c1)NC[C@@H]1C[C@H](F)CN1
effect: -6.004

structure: CN(C)c1cccc(C(=O)Nc2cnns2)c1
effect: 25.88

structure: COC(=O)NCCc1ccccc1OC
effect: 29.36

structure: NS(=O)(=O)c1ccc(O)c(F)c1
effect: -0.1134

2 of the entries, repeated:

structure,effect
COc1ccc(C(C)CO)cc1 (stereo not shown),55.12
COC(=O)NCCc1ccccc1OC,29.36